Earlier results as cited in patent US7365050B2, “Methods for modulating a drug-related effect or behavior” (The Regents of the University of California, priority 2003, dated 2008).

By UniProt entry, the sequences of proteins in these tests, tags left out.
UniProt Q02294, whole entry: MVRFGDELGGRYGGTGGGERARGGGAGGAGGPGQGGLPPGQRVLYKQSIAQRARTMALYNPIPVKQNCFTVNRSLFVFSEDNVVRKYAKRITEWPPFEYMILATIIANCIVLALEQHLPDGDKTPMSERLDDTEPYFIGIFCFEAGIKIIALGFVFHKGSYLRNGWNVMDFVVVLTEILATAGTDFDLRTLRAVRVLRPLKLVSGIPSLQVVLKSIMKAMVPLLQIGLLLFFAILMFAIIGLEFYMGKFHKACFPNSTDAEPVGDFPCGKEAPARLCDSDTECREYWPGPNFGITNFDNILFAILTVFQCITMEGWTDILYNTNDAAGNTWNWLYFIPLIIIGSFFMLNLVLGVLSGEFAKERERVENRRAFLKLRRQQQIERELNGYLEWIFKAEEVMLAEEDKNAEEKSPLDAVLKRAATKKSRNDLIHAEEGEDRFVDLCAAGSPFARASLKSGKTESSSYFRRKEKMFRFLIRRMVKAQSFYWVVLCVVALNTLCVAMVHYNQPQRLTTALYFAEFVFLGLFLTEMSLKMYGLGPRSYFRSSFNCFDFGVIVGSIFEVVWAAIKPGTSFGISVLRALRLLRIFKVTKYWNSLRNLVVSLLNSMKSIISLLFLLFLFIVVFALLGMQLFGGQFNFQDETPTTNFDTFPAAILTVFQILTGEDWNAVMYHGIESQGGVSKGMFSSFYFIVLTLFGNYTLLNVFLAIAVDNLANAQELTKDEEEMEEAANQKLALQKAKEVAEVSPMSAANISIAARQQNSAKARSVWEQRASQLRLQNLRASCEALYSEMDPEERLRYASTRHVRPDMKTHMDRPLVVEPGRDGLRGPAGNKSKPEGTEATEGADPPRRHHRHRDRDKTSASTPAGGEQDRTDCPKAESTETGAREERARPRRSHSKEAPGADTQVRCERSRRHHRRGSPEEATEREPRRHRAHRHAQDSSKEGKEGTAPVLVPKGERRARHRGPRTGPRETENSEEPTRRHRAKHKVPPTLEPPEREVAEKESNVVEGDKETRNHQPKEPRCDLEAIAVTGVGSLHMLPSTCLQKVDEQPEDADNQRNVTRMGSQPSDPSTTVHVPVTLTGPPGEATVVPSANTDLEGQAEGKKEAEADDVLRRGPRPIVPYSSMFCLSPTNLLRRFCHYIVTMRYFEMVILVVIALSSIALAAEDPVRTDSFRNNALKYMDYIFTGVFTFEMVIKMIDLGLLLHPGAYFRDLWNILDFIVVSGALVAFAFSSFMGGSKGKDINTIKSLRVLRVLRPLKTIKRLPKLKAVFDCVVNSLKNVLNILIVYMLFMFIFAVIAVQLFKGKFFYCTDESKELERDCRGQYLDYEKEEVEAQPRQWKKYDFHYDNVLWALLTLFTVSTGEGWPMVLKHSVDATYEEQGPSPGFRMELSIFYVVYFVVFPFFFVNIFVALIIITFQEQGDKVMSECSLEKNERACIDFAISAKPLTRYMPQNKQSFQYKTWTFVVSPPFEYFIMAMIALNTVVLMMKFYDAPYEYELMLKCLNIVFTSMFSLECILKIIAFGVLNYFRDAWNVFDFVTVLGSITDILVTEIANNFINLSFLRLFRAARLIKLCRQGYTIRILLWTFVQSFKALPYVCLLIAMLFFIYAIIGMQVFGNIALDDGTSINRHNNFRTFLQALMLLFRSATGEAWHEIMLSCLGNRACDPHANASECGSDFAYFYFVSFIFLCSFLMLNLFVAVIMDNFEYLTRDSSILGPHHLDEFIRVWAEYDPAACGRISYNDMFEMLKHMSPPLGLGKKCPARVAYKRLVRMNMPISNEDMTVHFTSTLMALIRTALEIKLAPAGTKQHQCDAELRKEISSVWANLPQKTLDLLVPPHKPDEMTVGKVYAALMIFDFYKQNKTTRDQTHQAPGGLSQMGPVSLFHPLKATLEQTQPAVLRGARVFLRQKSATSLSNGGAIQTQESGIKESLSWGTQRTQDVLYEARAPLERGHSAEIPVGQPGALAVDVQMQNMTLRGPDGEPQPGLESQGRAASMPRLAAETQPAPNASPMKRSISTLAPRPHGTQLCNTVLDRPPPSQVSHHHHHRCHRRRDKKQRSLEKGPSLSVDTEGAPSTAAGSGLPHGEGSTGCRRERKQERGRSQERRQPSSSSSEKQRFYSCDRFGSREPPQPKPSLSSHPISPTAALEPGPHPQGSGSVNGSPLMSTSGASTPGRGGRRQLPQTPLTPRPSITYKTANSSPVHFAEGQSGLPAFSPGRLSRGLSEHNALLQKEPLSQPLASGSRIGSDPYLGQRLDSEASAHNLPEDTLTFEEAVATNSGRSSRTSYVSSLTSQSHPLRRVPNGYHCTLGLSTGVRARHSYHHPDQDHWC

Molecular target: N-type calcium channel (Rattus norvegicus, UniProt Q02294)
Set-up: release of beta-endorphin from primary cultures of hypothalamic neurons; endogenous in cells; host or cells: primary cultures of hypothalamic neurons
Conditions: cited from earlier work

Question: For omega-conotoxin GVIA, which “ethanol-stimulated release of beta-endorphin” value is on record?
Answer: prevented
